Assay results as given in patent publication US5739276A, “Conotoxin peptides” (dated 1998).

Protein sequences, listed by entry. Tags and fused reporters are not part of them. Residues count along the entry.
UniProt Q02294, whole entry: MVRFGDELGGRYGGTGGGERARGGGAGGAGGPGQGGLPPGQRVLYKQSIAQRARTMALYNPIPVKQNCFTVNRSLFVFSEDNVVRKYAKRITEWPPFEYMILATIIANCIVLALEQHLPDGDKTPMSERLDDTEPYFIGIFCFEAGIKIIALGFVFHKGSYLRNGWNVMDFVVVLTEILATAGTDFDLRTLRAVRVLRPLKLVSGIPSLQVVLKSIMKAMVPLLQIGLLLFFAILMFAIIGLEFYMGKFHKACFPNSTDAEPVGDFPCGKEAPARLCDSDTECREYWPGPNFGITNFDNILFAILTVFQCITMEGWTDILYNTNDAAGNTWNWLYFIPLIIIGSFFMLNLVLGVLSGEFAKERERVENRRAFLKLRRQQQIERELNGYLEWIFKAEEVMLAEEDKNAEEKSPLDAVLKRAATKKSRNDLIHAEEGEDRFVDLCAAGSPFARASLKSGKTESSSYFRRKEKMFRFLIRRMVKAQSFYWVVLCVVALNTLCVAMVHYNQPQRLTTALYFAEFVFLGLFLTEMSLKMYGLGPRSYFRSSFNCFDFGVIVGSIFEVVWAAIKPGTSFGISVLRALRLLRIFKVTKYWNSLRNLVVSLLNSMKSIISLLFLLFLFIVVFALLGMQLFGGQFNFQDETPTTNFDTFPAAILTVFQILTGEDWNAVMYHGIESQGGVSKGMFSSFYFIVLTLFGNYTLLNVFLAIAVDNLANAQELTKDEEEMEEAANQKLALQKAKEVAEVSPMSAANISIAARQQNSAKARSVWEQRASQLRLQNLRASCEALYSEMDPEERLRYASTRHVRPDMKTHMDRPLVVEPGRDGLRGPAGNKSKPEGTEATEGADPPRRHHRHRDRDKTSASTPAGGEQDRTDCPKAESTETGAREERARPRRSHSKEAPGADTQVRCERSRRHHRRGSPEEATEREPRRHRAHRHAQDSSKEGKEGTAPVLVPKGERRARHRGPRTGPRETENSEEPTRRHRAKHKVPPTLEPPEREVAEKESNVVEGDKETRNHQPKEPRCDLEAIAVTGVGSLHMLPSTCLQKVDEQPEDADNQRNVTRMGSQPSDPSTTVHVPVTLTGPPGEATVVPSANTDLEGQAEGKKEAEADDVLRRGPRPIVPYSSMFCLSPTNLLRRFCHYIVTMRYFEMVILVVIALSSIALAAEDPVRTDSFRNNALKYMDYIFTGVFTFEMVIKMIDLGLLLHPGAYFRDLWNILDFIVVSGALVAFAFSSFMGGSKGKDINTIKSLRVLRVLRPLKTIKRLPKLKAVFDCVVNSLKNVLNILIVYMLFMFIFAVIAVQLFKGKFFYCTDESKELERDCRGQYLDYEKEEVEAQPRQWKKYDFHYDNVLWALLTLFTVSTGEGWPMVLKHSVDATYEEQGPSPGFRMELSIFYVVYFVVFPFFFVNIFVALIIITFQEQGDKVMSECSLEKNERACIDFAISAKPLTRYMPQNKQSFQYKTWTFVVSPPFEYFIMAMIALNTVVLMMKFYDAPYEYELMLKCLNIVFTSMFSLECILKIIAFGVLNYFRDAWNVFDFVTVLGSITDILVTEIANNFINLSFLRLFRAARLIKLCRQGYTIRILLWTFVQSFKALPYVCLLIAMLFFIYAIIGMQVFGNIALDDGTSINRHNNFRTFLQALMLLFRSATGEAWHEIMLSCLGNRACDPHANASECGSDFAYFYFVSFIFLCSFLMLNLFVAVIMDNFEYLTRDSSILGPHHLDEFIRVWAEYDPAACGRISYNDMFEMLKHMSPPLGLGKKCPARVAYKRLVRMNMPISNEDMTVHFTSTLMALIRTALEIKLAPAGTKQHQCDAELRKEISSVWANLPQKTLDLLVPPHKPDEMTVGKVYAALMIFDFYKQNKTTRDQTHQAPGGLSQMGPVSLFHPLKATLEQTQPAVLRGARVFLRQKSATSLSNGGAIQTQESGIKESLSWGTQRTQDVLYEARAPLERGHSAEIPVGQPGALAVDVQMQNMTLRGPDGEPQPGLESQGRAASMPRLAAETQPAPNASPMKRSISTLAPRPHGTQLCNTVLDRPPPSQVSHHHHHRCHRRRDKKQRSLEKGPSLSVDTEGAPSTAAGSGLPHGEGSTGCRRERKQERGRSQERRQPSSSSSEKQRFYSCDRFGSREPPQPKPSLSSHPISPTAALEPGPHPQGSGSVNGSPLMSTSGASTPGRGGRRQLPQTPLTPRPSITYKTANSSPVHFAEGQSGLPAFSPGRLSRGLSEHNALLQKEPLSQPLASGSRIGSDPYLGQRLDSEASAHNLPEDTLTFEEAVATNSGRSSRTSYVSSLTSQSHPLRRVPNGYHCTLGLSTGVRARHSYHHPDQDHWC
UniProt P54290, 25-944 partner limits assumed: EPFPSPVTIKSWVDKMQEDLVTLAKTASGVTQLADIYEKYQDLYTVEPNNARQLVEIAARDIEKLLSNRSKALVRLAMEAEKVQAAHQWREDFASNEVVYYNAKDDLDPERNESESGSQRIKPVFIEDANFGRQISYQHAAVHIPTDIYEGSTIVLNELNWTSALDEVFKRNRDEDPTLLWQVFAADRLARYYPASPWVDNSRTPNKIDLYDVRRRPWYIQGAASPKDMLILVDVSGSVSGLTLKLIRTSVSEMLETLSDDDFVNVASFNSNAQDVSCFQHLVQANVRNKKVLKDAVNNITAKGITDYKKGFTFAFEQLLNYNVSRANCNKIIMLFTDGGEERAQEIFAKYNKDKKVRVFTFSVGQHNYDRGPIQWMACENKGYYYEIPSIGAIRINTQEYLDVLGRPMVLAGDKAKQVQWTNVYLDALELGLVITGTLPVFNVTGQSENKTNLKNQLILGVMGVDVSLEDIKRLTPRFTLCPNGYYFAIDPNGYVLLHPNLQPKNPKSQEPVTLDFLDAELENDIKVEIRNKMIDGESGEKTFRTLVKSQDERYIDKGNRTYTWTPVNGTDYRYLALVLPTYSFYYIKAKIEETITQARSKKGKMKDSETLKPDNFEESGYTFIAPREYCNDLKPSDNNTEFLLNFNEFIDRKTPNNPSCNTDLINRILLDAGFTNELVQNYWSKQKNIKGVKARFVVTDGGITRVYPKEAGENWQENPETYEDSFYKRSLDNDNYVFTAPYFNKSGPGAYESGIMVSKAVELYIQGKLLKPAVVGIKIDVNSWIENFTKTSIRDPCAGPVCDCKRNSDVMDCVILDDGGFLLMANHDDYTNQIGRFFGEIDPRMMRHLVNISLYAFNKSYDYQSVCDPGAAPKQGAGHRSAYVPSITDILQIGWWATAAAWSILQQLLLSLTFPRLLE
UniProt P54290, 945-1091 partner limits assumed: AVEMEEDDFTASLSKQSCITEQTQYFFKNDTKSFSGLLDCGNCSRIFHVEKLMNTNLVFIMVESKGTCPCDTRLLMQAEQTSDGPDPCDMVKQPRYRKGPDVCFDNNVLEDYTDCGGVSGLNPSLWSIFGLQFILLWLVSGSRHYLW
UniProt P54287, whole entry partner: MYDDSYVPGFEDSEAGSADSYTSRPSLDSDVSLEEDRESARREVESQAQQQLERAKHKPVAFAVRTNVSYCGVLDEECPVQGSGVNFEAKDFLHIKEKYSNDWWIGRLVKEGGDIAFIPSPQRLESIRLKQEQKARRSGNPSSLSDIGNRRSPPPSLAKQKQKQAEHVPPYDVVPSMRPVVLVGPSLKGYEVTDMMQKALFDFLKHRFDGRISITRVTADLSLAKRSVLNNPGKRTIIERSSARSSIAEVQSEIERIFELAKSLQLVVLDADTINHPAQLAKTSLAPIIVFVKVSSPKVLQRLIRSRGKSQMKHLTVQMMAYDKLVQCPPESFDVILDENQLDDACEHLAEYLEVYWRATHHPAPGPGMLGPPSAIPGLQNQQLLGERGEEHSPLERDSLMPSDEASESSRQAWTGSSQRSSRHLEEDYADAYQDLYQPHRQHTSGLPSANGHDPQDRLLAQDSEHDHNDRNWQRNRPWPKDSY

Experiments:
[1] = target: high affinity ω-conotoxin GVIA binding site on mammalian brain Ca^2+ channels (Rattus norvegicus, UniProt Q02294); experiment: Binding competition at ω-conotoxin GVIA site (MrVIA)
[2] = target: ω-conotoxin site (Rattus norvegicus, UniProt Q02294); experiment: Binding competition with [125I]ω-conotoxin GVIA on rat brain membranes; details: conditions optimal for δ-conotoxin TxVIA binding; no additions 4405 ± 123
[3] = test system: high-affinity sites on rat brain Na channel; experiment: Binding competition with [125I]δ-conotoxin TxVIA on rat brain membranes; details: conditions optimal for δ-conotoxin TxVIA binding; no additions 4890 ± 691

Substance | competitive binding inhibition at ω-conotoxin GVIA site [1] | [^125 I]ω-GVIA label (cpm bound) [2] | [^125 I]δ-TxVIA label (cpm bound) [3]
Ala-Cys-Arg-Lys-Lys-Trp-Glu-Tyr-Cys-Ile-Val-Pro-Ile-Ile-Gly-Phe-Ile-Tyr-Cys-Cys-Pro-Gly-Leu-Ile-Cys-Gly-Pro-Phe-Val-Cys-Val | does not occur |  | 
Glu-Ala-Cys-Tyr-Ala-Xaa1 -Gly-Thr-Phe-Cys-Gly-Ile-Lys-Xaa2 -Gly-Leu-Cys-Cys-Ser-Glu-Phe-Cys-Leu-Pro-Gly-Val-Cys-Pro-Gly [δ-conotoxin PVIA (nonamidated)] |  | 4393 ± 458 cpm bound | 848 ± 196 cpm bound
